Measured values published in the supplement of paper PMC3578754.
Fold change is the IC50 on the isolate divided by the IC50 on a reference virus; 1 = unchanged, higher = more resistant. Changes are given against the subtype B consensus. No active / inactive call. The values were gathered from many studies (numbered anew) with different assays, which the source does not name. Most viruses are clinical isolates; some are laboratory strains or clones with known resistance changes. Isolates with mixed residues are left out; stretches that were not sequenced show no change. Round top values that many isolates share are read here as limits; other very high values and 0.1 may be limits too.

Assays:
Experiment in all cases: fold change of IC50 against reference virus; higher = more resistant
tenofovir = compound: C[C@H](Cn1cnc2c(N)ncnc21)OCP(=O)(O)O [tenofovir]
Protocol: (§1)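 Cell-culture drug susceptibility tests of virus bearing the reverse transcriptase of each isolate, gathered from many studies.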

zidovudine = compound: Cc1cn([C@H]2C[C@H](N=[N+]=[N-])[C@@H](CO)O2)c(=O)[nH]c1=O [zidovudine]
Protocol: as §1

stavudine = compound: Cc1cn([C@H]2C=C[C@@H](CO)O2)c(=O)[nH]c1=O [stavudine]
Protocol: as §1

delavirdine = compound: CC(C)Nc1cccnc1N1CCN(C(=O)c2cc3cc(NS(C)(=O)=O)ccc3[nH]2)CC1 [delavirdine]
Protocol: as §1

nevirapine = compound: Cc1ccnc2c1NC(=O)c1cccnc1N2C1CC1 [nevirapine]
Protocol: as §1

efavirenz = compound: O=C1Nc2ccc(Cl)cc2[C@@](C#CC2CC2)(C(F)(F)F)O1 [efavirenz]
Protocol: as §1

abacavir = compound: Nc1nc(NC2CC2)c2ncn([C@H]3C=C[C@@H](CO)C3)c2n1 [abacavir]
Protocol: as §1

zalcitabine = compound: Nc1ccn([C@H]2CC[C@@H](CO)O2)c(=O)n1 [zalcitabine]
Protocol: as §1

didanosine = compound: O=c1[nH]cnc2c1ncn2[C@H]1CC[C@@H](CO)O1 [didanosine]
Protocol: as §1

Row | Test System | fold change of IC50 against reference virus (tenofovir) | fold change of IC50 against reference virus (zidovudine) | fold change of IC50 against reference virus (stavudine) | fold change of IC50 against reference virus (delavirdine) | fold change of IC50 against reference virus (nevirapine) | fold change of IC50 against reference virus (efavirenz) | fold change of IC50 against reference virus (abacavir) | fold change of IC50 against reference virus (zalcitabine) | fold change of IC50 against reference virus (didanosine)
1 | HIV-1 isolate 1283 (reverse transcriptase changes: V35M K102Q I135V T139R Y181C M184V G196E T200A T215Y L228P, study 121) | 0.4 | 0.7 | 1 | 50 | 123 | 1 | 4.6 | 2.3 | 1.9
2 | HIV-1 isolate 1332 (reverse transcriptase changes: E40F M41L K43E D67N K104R V106I T107P V118I M184V Q207E H208Y L210W R211K T215Y A272P K277R, study 121) | 1.7 | 59 | 5.4 | 0.1 | 0.1 | 0.1 | 8.4 | 3.8 | 3.3
3 | HIV-1 isolate 696 (reverse transcriptase changes: E6D V60I G196E T200I E203D, study 15) | 0.8 | 0.9 | 1.2 | 0.6 | 0.5 | 0.5 | 1.1 | 1.2 | 0.9
4 | HIV-1 isolate 212 (reverse transcriptase changes: V35M A62V D86E K103R D123E D177K V179D M184V I202V Q207A R211K V241I A288G, study 12) | 0.4 | 0.3 | 0.7 | 17 | 10 | 11 | 3.8 | 2.5 | 1.9
5 | HIV-1 isolate 447 (reverse transcriptase changes: K20R V60I K64R D67N K70R A98G I159L Q174R Y181C M184V E203K Q207E R211K F214L D218E K219E E224K A272P T286A, study 15) | 1.4 | 9.7 | 1.9 | 41 | ≥ 400 | 7.3 | 6.7 | 1.9 | 1.7
6 | HIV-1 isolate 933 (reverse transcriptase changes: M41L D67N K70R K103N K122E M184V F214L T215Y K219E A272P K277R, study 138) | 1.8 | 33.8 | 1.7 | 30.8 | 42.6 | 19.5 | 6.1 | 1.8 | 1.6
7 | HIV-1 isolate 52 (reverse transcriptase changes: V35I S48T D67N T69N K70R K122E M184V G196E H208Y T215F D218E K219Q V245M A272P A288T, study 121) | 0.8 | 3.1 | 1.8 | 0.3 | 0.3 | 0.2 | 5.5 | 2.1 | 1.8
8 | HIV-1 isolate 1024 (reverse transcriptase changes: M41I D67N K103N M184V L210W T215Y K219N, study 15) | 2.3 | 270 | 2.8 | 104 | 53 | 17 | 10 | 2.5 | 2.6
9 | HIV-1 isolate 883 (reverse transcriptase changes: V35M V60I K64R D67N K70R K101R V108I K122P I135T D177E I178L M184V T215F K219Q A272P K277R I293V, study 121) | 1.1 | 7.7 | 1.5 | 0.8 | 2 | 1 | 6.5 | 2.4 | 1.7
10 | HIV-1 isolate 1174 (reverse transcriptase changes: M41L W88C V111I K122E M184V L210W T215Y K275R K277R Q278N L283I I293V, study 121) | 1.2 | 3.6 | 1.6 | 0.4 | 0.6 | 0.4 | 5 | 2.5 | 1.6
11 | HIV-1 isolate 665 (reverse transcriptase changes: L100I K103N M184V L210W T215Y K219N, study 118) | 0.8 | 3.1 | 1.5 | 180 | 78 | 180 | 4.5 | 2.2 | 1.5
12 | HIV-1 isolate 1115 (reverse transcriptase changes: K20R K32E T39A M41L E44D D67N V118I D123E I135K Q174R D177E M184V G196E T200A L210W R211K T215Y V245E E297K, study 15) | 1.1 | 9.6 | 2.6 | 0.1 | 0.1 | 0.2 | 5.2 | 2.6 | 2.1
13 | HIV-1 isolate 381 (reverse transcriptase changes: T39A M41L E44D D67N K70R K122E I142V M184V I202V L210W R211K T215Y K219Q A288T, study 121) | 2.4 | 113 | 3 | 0.6 | 0.6 | 0.5 | 7.7 | 2.4 | 1.9
14 | HIV-1 isolate 835 (reverse transcriptase changes: M41L K122E M184V F214L T215Y A272P K277R, study 138) | 1 | 5.5 | 1 | 0.3 | 0.5 | 0.3 | 3.2 | 1.4 | 1.2
